The values below are quoted from earlier work in PMC10222987 (Viruses, 2023).

SMILES strings stand for the structures.

The subject of the data set is mutant isolates used in this study. To be noted: PA/I38T mutant isolates; cited from earlier work.

Turning to `O=C1c2c(O)c(=O)ccn2N([C@@H]2c3ccccc3SCc3c2ccc(F)c3F)[C@@H]2COCCN12` [baloxavir acid], the “EC50-based fold change (FC) in baloxavir acid susceptibility” value was 27–57.
